Data set [1] can be described thus: Selectivity index, ratio of CC50 for cytotoxicity against human MT4 cells reduction in cell viability for 5 days by MTT assay to EC50 for antiviral activity against wild type HIV-1 strain IIIB infected in human MT4 cells assessed as reduction in virus-induced cytopathogenicity by MTT assay. The data set is classed as toxicity, cell-based. The conditions noted are these: time 5 day, read-out: Selectivity Index. (In general: Tetrazolium assays rely on reduction of a dye to a coloured formazan, in cell work by metabolically active cells.)

Protein sequences, listed by entry. Tags and fused reporters are not part of them. Lines headed by an entry give the natural chain unless they say otherwise; changes in a name come on top.
UniProt Q12809: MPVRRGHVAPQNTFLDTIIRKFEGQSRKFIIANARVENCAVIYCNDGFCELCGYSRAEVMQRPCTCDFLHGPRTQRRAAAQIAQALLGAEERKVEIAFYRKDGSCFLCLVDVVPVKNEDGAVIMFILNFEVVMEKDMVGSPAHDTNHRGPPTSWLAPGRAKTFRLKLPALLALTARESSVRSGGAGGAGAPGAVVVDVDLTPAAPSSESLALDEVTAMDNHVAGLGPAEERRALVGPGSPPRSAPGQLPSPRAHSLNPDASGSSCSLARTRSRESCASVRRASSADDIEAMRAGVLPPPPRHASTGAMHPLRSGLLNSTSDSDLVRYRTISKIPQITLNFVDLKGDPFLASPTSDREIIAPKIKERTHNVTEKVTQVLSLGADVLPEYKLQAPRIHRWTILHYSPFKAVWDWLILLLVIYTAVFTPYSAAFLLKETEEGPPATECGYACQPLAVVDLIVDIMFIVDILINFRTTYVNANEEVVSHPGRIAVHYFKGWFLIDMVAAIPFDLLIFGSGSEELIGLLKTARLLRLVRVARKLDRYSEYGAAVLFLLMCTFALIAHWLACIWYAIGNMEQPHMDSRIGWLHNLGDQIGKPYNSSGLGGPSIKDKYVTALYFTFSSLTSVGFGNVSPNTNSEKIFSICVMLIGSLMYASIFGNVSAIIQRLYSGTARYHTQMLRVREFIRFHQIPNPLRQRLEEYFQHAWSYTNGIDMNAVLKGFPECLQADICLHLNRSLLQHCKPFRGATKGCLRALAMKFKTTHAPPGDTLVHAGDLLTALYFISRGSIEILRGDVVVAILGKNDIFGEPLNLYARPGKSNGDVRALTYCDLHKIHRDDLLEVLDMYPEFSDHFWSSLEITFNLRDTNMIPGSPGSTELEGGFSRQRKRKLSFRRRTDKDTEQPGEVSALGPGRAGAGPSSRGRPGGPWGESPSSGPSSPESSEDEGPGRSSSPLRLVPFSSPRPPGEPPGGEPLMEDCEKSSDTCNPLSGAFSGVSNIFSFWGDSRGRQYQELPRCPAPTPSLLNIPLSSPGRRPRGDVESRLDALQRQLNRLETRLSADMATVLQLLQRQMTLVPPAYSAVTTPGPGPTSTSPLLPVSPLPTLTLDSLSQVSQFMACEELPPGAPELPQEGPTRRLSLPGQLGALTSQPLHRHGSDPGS

The subject of data set [2] is MT4. In words: Cytotoxicity in mock-infected human MT4 assessed as reduction in cell viability incubated for 5 days by MTT assay. The format is ADME, cell-based. The conditions noted are these: mt4, 120 h, time 5 day.
Data set [3] deals with Human immunodeficiency virus type 1 reverse transcriptase (Human immunodeficiency virus 1, UniProt Q72547). Kind of data set: Inhibition of recombinant wild type HIV1 reverse transcriptase assessed as inhibition of biotin-dUTP incorporation into template.
Data set [4] is described as follows: Selectivity index, ratio of CC50 for cytotoxicity against human MT4 cells reduction in cell viability for 5 days by MTT assay to EC50 for antiviral activity against NNRTI-resistant HIV-1 RES056 harboring RT K103N/Y181C mutant infected in human MT4 cells assessed as protection against virus-induced cytopathogenicity after 5 days by MTT assay. The data set is classed as toxicity, cell-based. The conditions noted are these: time 5 day, read-out: Selectivity Index.

For data set [5], the system named is Human immunodeficiency virus 2. In words: Antiviral activity against HIV-2 ROD infected in human MT4 cells assessed as protection against virus-induced cytopathogenicity after 5 days by MTT assay. The conditions noted are these: Human immunodeficiency virus 2, ROD, MT4, 120 h.
A short description of data set [6]: in vivo. The conditions noted are these: Sprague-Dawley, rat, po, 20 mg/kg.
A short description of data set [7]: in vivo. The note with it: Sprague-Dawley, rat, iv, 2 mg/kg.
The nature of data set [8]: in vivo. The conditions noted are these: Sprague-Dawley, rat, po, 20 mg/kg. The source holds these as a separate data set.
The nature of data set [9]: in vivo. The note with it: Sprague-Dawley, rat, po, 20 mg/kg. The source holds these as a separate data set.
A short description of data set [10]: in vivo. The note with it: Sprague-Dawley, rat, po, 20 mg/kg. The source holds these as a separate data set.
Data set [11] is described as follows: in vivo. The note with it: Sprague-Dawley, rat, iv, 2 mg/kg. This is another data set of the same source.
Data set [12] can be described thus: Clearance in Sprague-Dawley rat at 2 mg/kg, iv. The note with it: in vivo.
Data set [13] can be described thus: Half life in Sprague-Dawley rat at 2 mg/kg, iv. The conditions noted are these: in vivo.
Data set [14] has as its target Voltage-gated inwardly rectifying potassium channel KCNH2 (Homo sapiens, UniProt Q12809).
Data set [15] can be described thus: in vivo. The note with it: Sprague-Dawley, rat, iv, 2 mg/kg. The source holds these as a separate data set.

The term CC50 denotes the concentration giving 50% cytotoxicity. In general, IC50 refers to the concentration that gives 50% inhibition. In the case of `Cc1cc(/C=C/C#N)cc(C)c1Oc1nc(NC2CCN(Cc3ccc(C(N)=O)cc3)CC2)ncc1-c1ccncc1`, the selectivity ratio at 120 h in data set [1] was 2430; in data set [4] it was 436. The 50% cytotoxic concentration (CC50) in [2] was 10.2 µM. In data set [3], the IC50 is 0.102 µM.

With `Cc1cc(/C=C/C#N)cc(C)c1Oc1nc(NC2CCN(Cc3ccc(S(N)(=O)=O)cc3)CC2)ncc1-c1ccncc1`, the selectivity ratio at 120 h in [1] is 2010; in data set [4], 404. The CC50 in data set [2] turned out to be 9.25 µM. The 50% inhibitory concentration (IC50) in [3] stood at 0.143 µM.

The EC50 is the midpoint of the concentration-response curve. `Cc1cc(C#N)cc(C)c1Oc1nc(NC2CCN(Cc3ccc(S(N)(=O)=O)cc3)CC2)ncc1-c1ccoc1`: the values for the selectivity ratio at 120 h in [1] and in data set [4] were 11600 and 180, respectively. The CC50 in data set [2] was found to be 29.1 µM. Besides, the concentration for half-maximal inhibition (IC50) in data set [3] amounted to 0.092 µM. In addition, the EC50 in data set [5] is > 29.1 µM.

By half-life is commonly meant how long it takes for the measured level to halve. As a reminder, the AUC(0-t) is the area under the concentration-time curve up to a stated or last time point. In general, Cmax refers to the peak of the concentration-time curve. As a reminder, the AUC(0-inf) is total exposure, with the tail of the curve extrapolated. High values mean high exposure, low ones low exposure. Broadly, the clearance is a measure of how efficiently the substance is removed, as volume per time. Low values mean inefficient removal, high ones efficient removal. With `Cc1cc(C#N)cc(C)c1Oc1nc(NC2CCN(Cc3ccc(C(N)=O)cc3)CC2)ncc1-c1ccncc1`, the half-life in data set [6] was 1.74 h; in data set [13], 2.46 h. Besides, the results for the AUC(0-t) in [7] and in [10] were 293 ng·h/mL and 460 ng·h/mL, respectively. Also, the values for the Cmax in data set [8] and in data set [11] were 174 ng/mL and 278 ng/mL, respectively. Also, the AUC(0-inf) worked out at 466 ng·h/mL in data set [9] and 303 ng·h/mL in [15]. Further, the selectivity ratio at 120 h in data set [1] is 9600; in [4], 1470. Besides, in data set [12], the clearance is 110 mL/min/kg. Also, in data set [2], the CC50 stood at 36 µM. Further, the IC50 in data set [14] is 1.19 µM; in data set [3], 0.113 µM.

In the case of `Cc1cc(C#N)cc(C)c1Oc1nc(NC2CCN(Cc3ccc(S(N)(=O)=O)cc3)CC2)ncc1-c1ccccc1`, the selectivity ratio at 120 h turned out to be 2740 in [1] and 33 in data set [4]. Further, the half-maximal cytotoxic concentration (CC50) in data set [2] came to 14.1 µM. Further, the EC50 in [5] is > 14.1 µM.

Regarding `Cc1cc(C#N)cc(C)c1Oc1nc(NC2CCN(Cc3ccc(S(C)(=O)=O)cc3)CC2)ncc1-c1ccsc1`, the selectivity ratio at 120 h was determined as 863 in data set [1] and 17 in data set [4]. For the same compound, the CC50 in [2] was found to be 4.25 µM. For the same compound, the EC50 in data set [5] is > 4.25 µM.
